Patent publication US20150203865
Construct, isoform or probe ends are uncertain for at least one entry. Results from cells or extracts need not show a direct contact. Tags and fusion partners may be left off the protein sequences shown.

Target: T1, AGO1 (Arabidopsis thaliana) (UniProt O04379)
T1 sequence (looked up, limits assumed): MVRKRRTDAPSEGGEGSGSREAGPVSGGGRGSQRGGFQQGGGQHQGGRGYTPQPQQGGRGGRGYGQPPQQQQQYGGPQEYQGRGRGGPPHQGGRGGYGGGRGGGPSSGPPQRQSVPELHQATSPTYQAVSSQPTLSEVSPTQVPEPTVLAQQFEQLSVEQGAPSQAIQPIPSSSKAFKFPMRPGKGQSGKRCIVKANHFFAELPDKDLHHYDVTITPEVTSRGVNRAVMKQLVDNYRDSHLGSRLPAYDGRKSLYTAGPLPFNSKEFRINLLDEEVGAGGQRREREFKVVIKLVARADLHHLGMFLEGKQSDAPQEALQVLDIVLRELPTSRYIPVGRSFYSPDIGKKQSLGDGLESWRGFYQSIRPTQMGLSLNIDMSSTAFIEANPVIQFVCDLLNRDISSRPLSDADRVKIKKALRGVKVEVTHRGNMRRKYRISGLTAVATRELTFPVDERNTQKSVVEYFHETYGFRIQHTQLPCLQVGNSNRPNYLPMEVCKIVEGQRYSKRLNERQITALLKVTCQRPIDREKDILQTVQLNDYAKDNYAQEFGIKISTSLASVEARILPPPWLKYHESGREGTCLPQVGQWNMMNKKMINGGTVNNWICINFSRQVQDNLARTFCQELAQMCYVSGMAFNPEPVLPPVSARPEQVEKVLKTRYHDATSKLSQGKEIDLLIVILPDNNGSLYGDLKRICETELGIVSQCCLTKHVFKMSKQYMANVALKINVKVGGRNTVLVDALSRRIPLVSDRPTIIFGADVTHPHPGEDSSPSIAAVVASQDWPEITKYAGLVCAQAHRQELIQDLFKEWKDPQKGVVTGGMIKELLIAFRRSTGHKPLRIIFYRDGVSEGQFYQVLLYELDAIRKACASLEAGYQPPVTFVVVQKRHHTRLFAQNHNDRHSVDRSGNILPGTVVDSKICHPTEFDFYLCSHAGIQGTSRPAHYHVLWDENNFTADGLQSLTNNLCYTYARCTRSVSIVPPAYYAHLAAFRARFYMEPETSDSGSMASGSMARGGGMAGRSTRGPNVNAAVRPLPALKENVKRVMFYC
Experiment: pull-down
Details: AGO1-IP then RT-PCR; infected leaves 24, 32, 48 hpi; hardly detected in mixed control; protein in an extract

Sequence	binding result
UACAUUGUGGAUCUUGUAGGU [Bc-siR3.2]	binds
UUGUGGAUCUUGUAGGUGGGC [Bc-siR3.1]	binds
UUUGACUCGGAAUGUAUACUU [Bc-siR5]	binds
